Reference: article PMC9964242 (Vaccines, 2023)

Tested on: influenza A/chicken/Egypt/N12640A/2016 (H5N1)
Test: Antiviral crystal violet assay against highly pathogenic avian influenza A/H5N1 (IC50)
Format: cell-based
Settings: virus H5N1

SMILES	SI (selectivity index = CC50/IC50)
CC[C@H](CC[C@@H](C)[C@H]1CC[C@H]2[C@@H]3CC=C4C[C@@H](O[C@@H]5O[C@H](CO)[C@@H](O)[C@H](O)[C@H]5O)CC[C@]4(C)[C@H]3CC[C@]12C)C(C)C [β-sitosterol-O-glucoside]	2860
CC[C@H](CC[C@@H](C)[C@H]1CC[C@H]2[C@@H]3CC=C4C[C@@H](O)CC[C@]4(C)[C@H]3CC[C@]12C)C(C)C [β-sitosterol]	33600
